In PMC9670689 (ACS Omega, 2022):

Tested on: highly pathogenic avian influenza A/chicken/Egypt/N12640A/2016(H5N1)

For `CCC(CC)O[C@@H]1C=C(C(=O)O)C[C@H](N)[C@H]1NC(C)=O` [oseltamivir carboxylate], the “SI (CC50/IC50)” value was > 11,561.
